Results from patent publication US20220127309A1.

Target: Ectodomain of INFA HA (1-529) - HIV GP160-based SSM (Influenza A)
Test: ELISA, printed as affinity (FIG. 2)

Substance “Prefusion, stem, specific monoclonal antibody CR8043” has a pKd of 8.48.

pKd: −log10 of the molar value.
